From ChEMBL document CHEMBL3988442, “University of Dundee, Small-Polar-MMV Screening Library” (2021).

A: 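Growth of Mycobacterium tuberculosis over 4 days (cholesterol / DPPC medium with tyloxapol); the read-out is not stated. Compounds at 500 µM. The record gives no direction; compounds that gave an IC50 in retests scored well above the rest, so higher reads as more growth inhibition. Size under these conditions: about 18,000 compounds, about 900 of them at 50% or above in at least one test.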
B: 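Whole-cell growth test on Mycobacterium tuberculosis, read after 3 days in glucose-containing 7H9 medium; the read-out is not stated. Compounds at 500 µM. Direction is inferred from retests: higher values go with more growth inhibition. Size under these conditions: about 18,000 compounds, about 1,400 of them at 50% or above in at least one test.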

Results are given as percent effect.
The record does not define 0% and 100%; most values in the screen are far below 50% and negative numbers occur (in some assays of this library far below -100).
The entries come from a sample that favours strong results.
A dash means the value is not listed here; it may have been measured.

| compound | A | B |
|---|---|---|
| `CC(C)CC(=O)NCc1cccnc1N1CCOCC1` | - | -10.75% |
| `Cn1c(SCCCO)nnc1-c1ccccc1F` | 53.89% | - |
| `NCCc1ncccc1F` | - | 1.658% |
| `Cc1ccc(NC(=O)NC(C)(CO)CO)cc1Br` | 0.6745% | 13.18% |
| `CC(C)[C@@H](CO)NCc1ccc(S(=O)(=O)N(C)C)cc1` | - | 4.774% |
| `Cn1c(SCC(=O)NC(N)=O)nnc1C(F)(F)F` | - | -7.095% |
| `O=C(Nc1ncccc1O)c1ccoc1` | -6.394% | -4.226% |
| `O[C@@H](Cc1ccccn1)c1ccccc1` | - | 25.49% |
| `CCO[C@H]1CN(c2ccc(C(N)=O)cn2)C[C@@H]1O` | - | 6.043% |
| `CCNc1nc2c([nH]1)c(=O)n(C)c(=O)n2C` | - | 4.776% |
| `CC1CCCN(C(=O)c2ccc3nnnn3c2)C1` (stereo not given) | - | 3.153% |
| `CNCCCNCc1ccc2c(c1)n(C)c(=O)n2C` | - | -4.842% |
| `N#Cc1ccccc1NC(=O)CCN1CCCC(O)C1` (stereo not given) | - | -5.713% |
| `COCCSC(C(N)=O)c1ccccc1` (stereo not given) | - | 13.73% |
| `CCNc1ncc(C(=O)N2CCSCC2)cn1` | - | 28.84% |
| `NCC(C(=O)N1CCOCC1)c1ccccc1` (stereo not given) | -6.43% | -8.992% |
| `N#Cc1cccc(-c2csc(N)n2)c1` | 19.23% | - |
| `O=C(CO)N1C[C@@H](CN2CCCCCC2)[C@@H](CO)C1` | - | -48.51% |
| `NCCCN1CCN(c2ccccc2)CC1` | -9.924% | -3.658% |
| `CC(=O)NC(C)C(=O)N1CCCC2(CC2)C1` (stereo not given) | - | 2.702% |
| `CN(C)c1cc(CNS(=O)(=O)c2cccs2)ccn1` | - | 39.09% |
| `c1ccc(CNCCOc2ccccn2)cc1` | - | 19.1% |
| `NCCCc1ccccn1` | - | 54.67% |
| `CC(C(=O)N1CCCC1)N(C)CCN1CCCC1` (stereo not given) | - | -0.3035% |
| `CNC(=O)C1CC(=O)N(c2cccc(Cl)c2)C1` (stereo not given) | 4.595% | - |
| `COCC1CCN(Cc2ccc3c(c2)OCO3)C1` (stereo not given) | - | 6.628% |
| `COCCOCC(=O)NCc1c(C)cc(C)nc1OC` | 13.73% | - |
| `CC(CN)c1nc(-c2ccccc2)no1` (stereo not given) | 60.85% | 55.6% |
| `CNCC(=O)NCC1CCN(c2cnn(C)c(=O)c2)C1` (stereo not given) | - | 3.457% |
| `Cc1ccccc1-c1nc(CNC(C)(CO)CO)no1` | - | 2.966% |
| `COCCN1CCN(c2ccc(OC)cc2)CC1` | - | 10.29% |
| `Cc1nc[nH]c1C(=O)N(C)CC1CCN(CC(C)C)C1` (stereo not given) | - | 4.272% |
| `CN1CCCN(C(=O)c2cc(C3CC3)on2)CC1` | 12.9% | 16.93% |
| `Cc1cc(Br)oc1C(=O)Nc1ncccc1O` | 75.41% | 72.96% |
| `O=S(=O)(c1ccc(Cl)s1)N1CCNCC1` | - | 28.52% |
| `CN1C(=O)COc2cc(NC(=O)C3CC=CC3)ccc21` | - | -4.962% |
| `CN1CCN(c2cc(C#N)ccn2)CC1` | 10.81% | - |
| `CCC(=O)N1CCCN(C(=O)C(CC)(CC)CN)CC1` | -3.475% | - |
| `CC1CCN(Cc2cc(=O)n3ccsc3n2)CC1` | -0.95% | - |
| `COc1cccc(NC(=O)Cn2cncn2)c1` | - | -13.43% |
| `Cc1ccc(OC2CCN(C(=O)[C@@H](C)N)CC2)cc1` | - | 43.39% |
| `COc1ccc2[nH]c(C(=O)NCC3CCCO3)cc2c1` (stereo not given) | 67.83% | 75.75% |
| `Cc1ccc(NC(=O)CCNS(C)(=O)=O)c(F)c1` | -0.5046% | - |
| `O=C(CCCn1cccn1)NCC1CCCCO1` (stereo not given) | - | 27.13% |
| `CC(=O)N1CCC(NC(=O)c2cc(C)c(C)s2)CC1` | - | -8.279% |
| `CNCC(=O)Nc1ccc(Br)cc1C` | 38.13% | - |
| `CNS(=O)(=O)c1ccc(C(=O)N2CCCCC2C)o1` (stereo not given) | 3.57% | - |
| `CCCN(C)S(=O)(=O)NC(C)c1ccc(OC)c(F)c1` (stereo not given) | 74.48% | 60.26% |
| `CCN(C)S(=O)(=O)NCC1(N)CCCCC1` | - | -4.73% |
| `CC1(C)CNCCC(=O)C1` | - | 66.58% |
| `CC(C)C(N)c1ncon1` (stereo not given) | - | -0.2025% |
| `CCCn1nnnc1CSc1ccccc1C#N` | - | 38.01% |
| `CN(C)CCNC(=O)c1ccc(CN)cc1` | - | 1.446% |
| `CCNS(=O)(=O)c1ccc(CC(N)=O)cc1` | - | 7.007% |
| `CC(C#N)(NC(=O)CSc1nnc(N)s1)C1CC1` (stereo not given) | 0.7944% | - |
| `NCCc1ccc2cc[nH]c2c1` | 13.92% | 55.81% |
| `N#CCCN1CCCN(Cc2ccc(C#N)cc2)CC1` | - | 15.86% |
| `O=C(Cn1nnc(-c2ccccc2)n1)N1CCCC1` | 41.01% | 45.05% |
| `Cc1ccc(C(CN)N2CCCC2)o1` (stereo not given) | 101.7% | 52.57% |
| `COC(=O)CNS(=O)(=O)c1ccc(C)cc1` | - | 27.17% |
| `O=C1CN(C(=O)CSc2ncccc2Cl)CCN1` | -0.5653% | 2.889% |
| `CC(C)c1ncc(C(=O)N2CCS(=O)(=O)CC2)cn1` | - | 55.08% |
| `COC(=O)Cc1ccoc1` | -4.418% | - |
| `CNc1ncccc1CN` | - | -1.164% |
| `NCC(=O)Nc1ccc2c(c1)OCCO2` | 8.716% | 19.63% |
| `NCc1ccc(CNC(=O)C2CCCCO2)cc1` (stereo not given) | 0.1175% | 25.8% |
| `CCC1CN(CC(=O)N(C)C2CC2)CCS1` (stereo not given) | 10.51% | - |
| `CCCN(CCO)CC(=O)N1CCCC(C)C1` (stereo not given) | 73.21% | - |
| `Cc1occc1C(=O)N(C)Cc1cnn(C)c1` | -29.02% | - |
| `Cc1noc(C)c1C(=O)NC1CCCN(S(C)(=O)=O)C1` (stereo not given) | -1.271% | - |
| `COc1ccc(NC(=O)C(C)(C)N(C)C)cc1` | - | -5.611% |
| `CCCNC(=O)c1ccc2c(c1)NC(=O)C(C)S2` (stereo not given) | - | 60.43% |
| `CC1=CC(=O)N(Cc2ccccc2)C1=O` | 112% | 102.6% |

5 of the entries, repeated:

compound	A	B
CCNc1ncc(C(=O)N2CCSCC2)cn1	-	28.84%
Cn1c(SCCCO)nnc1-c1ccccc1F	53.89%	-
NCc1ccc(CNC(=O)C2CCCCO2)cc1 (stereo not given)	0.1175%	25.8%
CCC1CN(CC(=O)N(C)C2CC2)CCS1 (stereo not given)	10.51%	-
O[C@@H](Cc1ccccn1)c1ccccc1	-	25.49%